Consider two compounds from patent US20130012506A1 (priority 2010, published 2013).

Molecules are shown by their SMILES.

For this test, the system named is M. tuberculosis H37Rv. Nature of the test: Frequency of spontaneous resistance on 7H10 agar. Type of test: cell-based, Mycobacterium tuberculosis.

For the compound `NNC(=O)c1ccncc1` [INH, isoniazid], the colonies entry is given as “—” (10 μg/ml, inoculum 10^6 CFU); 4 (10 μg/ml, inoculum 10^7 CFU); 18 (10 μg/ml, inoculum 10^8 CFU).
Turning to `O=c1c(CO)c(Nc2cccc(Cl)c2)nc2c(F)cccn12` [compound 264, 2-(3-Chlorophenylamino)-9-fluoro-3-(hydroxymethyl)-4H-pyrido[1,2-a]pyrimidin-4-one], the Frequency of resistance (0.4 μg/ml) was 3.4×10^−6 and the Frequency of resistance (3.2 μg/ml) is 2×10^−8. Further, the colonies result is listed as “—” (0.4 μg/ml, inoculum 10^6 CFU); 37 (0.4 μg/ml, inoculum 10^7 CFU); 306 (0.4 μg/ml, inoculum 10^8 CFU); “—” (0.8 μg/ml, inoculum 10^6 CFU); 5 (0.8 μg/ml, inoculum 10^7 CFU); 117 (0.8 μg/ml, inoculum 10^8 CFU). Moreover, the colonies entry runs as follows: (1.6 μg/ml, inoculum 10^6 CFU) “—”; (1.6 μg/ml, inoculum 10^7 CFU) “—”; (1.6 μg/ml, inoculum 10^8 CFU) 22; (3.2 μg/ml, inoculum 10^6 CFU) “—”; (3.2 μg/ml, inoculum 10^7 CFU) “—”; (3.2 μg/ml, inoculum 10^8 CFU) 2.
